Potato spindle tuber viroid, loop 15: variant abundance in plants

Source: Wu et al. 2024 (doi:10.1371/journal.ppat.1012142), supplementary data.

The pool varies loop 15 of the PSTVd intermediate strain in the pattern GGAAACCGNNNNNNC; wild type is GGAAACCGCUACUAC (upper and lower strand joined, each 5' to 3', the first 7 letters being the upper strand, closing pairs included).

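Three N. benthamiana plants were inoculated with the whole mutant pool. Progeny were sequenced from the inoculated region (day 5), the margin of the inoculated leaf (day 10) and systemic leaves (day 12).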

Numbers give reads per thousand; 0 = not seen among the reads, higher = more abundant.
Each value is the mean of three plants.
"Pool" is the share in the plasmid pool used as inoculum, on the same scale.
The inoculated region was read from the minus strand, the other sites from the plus strand.
IR is the inoculated region, LM the leaf margin, Sys the systemic leaves.
With 43,870-66,106 reads a sample, very low values are single reads.
For reference, wild type rose from 33.9 per thousand in the pool to 202, 200, 159 (inoculated region), 724, 746, 710 (leaf margin) and 856, 883, 880 (systemic leaves).
The authors trace changes outside the varied positions to PCR and sequencing errors or to mutation in the plant; presence does not show that a variant is infectious alone.

| sequence | pool | IR | LM | Sys |
|---|---|---|---|---|
| GGAAACCGGCUUACC | 0.192 | 0.101 | 0.0175 | 0 |
| GGAAACCGACCGUUC | 0.336 | 0.755 | 0.0644 | 0.0593 |
| GGAAACCGCAACAAC | 0.176 | 0.150 | 0.00668 | 0.0104 |
| GGAAACCGUUCUAAC | 0.288 | 0.372 | 0.0605 | 0.0215 |
| GGAAACCGUCCGUCC | 0.192 | 0.361 | 0.0948 | 0.0594 |
| GGAAACCGAGAGUUC | 0.304 | 0.421 | 0.101 | 0.0587 |
| GGAAACCGGACCCUC | 0.272 | 0.0894 | 0.0148 | 0 |
| GGAAACCGGUUCUAC | 0.224 | 0.0452 | 0 | 0.00537 |
| GGAAACCGGCGAAUC | 0.208 | 0.0226 | 0.0141 | 0.0107 |
| GGAAACCGGUAAGUC | 0.256 | 0.0741 | 0.0141 | 0 |
| GGAAACCGAUCUGCC | 0.176 | 0.135 | 0.0187 | 0.00760 |
| GGAAACCGACUAAGC | 0.224 | 0.0471 | 0.00539 | 0.00537 |
| GGAAACCGUCUUGUC | 0.288 | 0.120 | 0.00668 | 0 |
| GGAAACCGCGCCGUC | 0.192 | 0.263 | 0.00742 | 0 |
| GGAAACCGAGUCAUC | 0.208 | 0.125 | 0 | 0.00537 |
| GGAAACCGAGCUGGC | 0.256 | 0.0739 | 0 | 0.00537 |
| GGAAACCGGACUAAC | 0.240 | 0.0595 | 0.00668 | 0 |
| GGAAACCGGCUUUGC | 0.144 | 0.117 | 0.0134 | 0.00537 |
| GGAAACCGAAUCCUC | 0.256 | 0.155 | 0.00539 | 0 |
| GGAAACCGUCCCAGC | 0.0640 | 0.104 | 0.0121 | 0 |
| GGAAACCGAUUCUAC | 0.144 | 0.296 | 0.0841 | 0.0996 |
| GGAAACCGGAAAAAC | 0.176 | 0.147 | 0.0141 | 0.00537 |
| GGAAACCUCUACUAC | 0.0960 | 0.408 | 0.560 | 0.231 |
| GGAAACCGGGCAAUC | 0.144 | 0.0978 | 0.0241 | 0 |
| GGAAACCGAUGUGUC | 0.192 | 0.0848 | 0.00668 | 0 |
| GGAAACCGUGUGCAC | 0.192 | 0.123 | 0 | 0.00537 |
| GGAAACCGAAACGUC | 0.256 | 0.127 | 0 | 0 |
| GGAAACCGUGCUUCC | 0.240 | 0.0742 | 0.0241 | 0 |
| GGAAACCGGUACUGC | 0.208 | 0.257 | 0.112 | 0.0455 |
| GGAAACCGUCAGUCC | 0.320 | 0.359 | 0.127 | 0.0429 |
| GGAAACCGGUACUCC | 0.288 | 0.0721 | 0.00742 | 0 |
| GGAAACCGCUUUCCC | 0.304 | 0.0906 | 0.0175 | 0 |
| GGAAACCGAUAGCAC | 0.240 | 0.350 | 0.111 | 0.0462 |
| GGAAACCGCAGCGGC | 0.224 | 0.0567 | 0.0200 | 0.0161 |
| GGAAACCGGAGAGCC | 0.256 | 0.0976 | 0 | 0 |
| GGAAACCGCUUAGCC | 0.192 | 0.155 | 0.0128 | 0.0107 |
| GGAAACCGCUUCCGC | 0.208 | 0.127 | 0.0195 | 0 |
| GGAAACCGUAAGACC | 0.192 | 0.0926 | 0.00742 | 0 |
| GGAAACCGCCACAAC | 0.464 | 0.404 | 0.111 | 0.0939 |
| GGAAACCGAGUCGCC | 0.208 | 0.0794 | 0 | 0 |
| GGAAACCGCGCAAAC | 0.256 | 0.0901 | 0.00539 | 0 |
| GGAAACCGGACAUGC | 0.176 | 0.0380 | 0.0121 | 0 |
| GGAAACCGCCACCCC | 0.192 | 0.108 | 0.0141 | 0 |
| GGAAACCGGAUUGGC | 0.224 | 0.105 | 0.0141 | 0 |
| GGAAACCGUUUGGCC | 0.224 | 0.0831 | 0.0121 | 0 |
| GGAAACCGGUACUUC | 0.160 | 0.361 | 0.119 | 0.0335 |
| GGAAACCGAGAACUC | 0.176 | 0.0753 | 0 | 0.00537 |
| GGAAACCGACGACUC | 0.320 | 0.0895 | 0.0121 | 0 |
| GGAAACCGAGAUUAC | 0.224 | 0.872 | 0.203 | 0.0287 |
| GGAAACCGUGGCCUC | 0.240 | 0.0813 | 0.0377 | 0.00537 |
| GGAAACCGUACCCCC | 0.272 | 0.0954 | 0 | 0 |
| GGAAACCGAGCUCUC | 0.176 | 0.188 | 0.00668 | 0 |
| GGAAACCGCGUUUCC | 0.192 | 0.0903 | 0 | 0.00760 |
| GGAAACCGCCUGGAC | 0.224 | 0.204 | 0.00742 | 0 |

7 of these entries, quoted again:

| sequence | pool | IR | LM | Sys |
|---|---|---|---|---|
| GGAAACCGCCACCCC | 0.192 | 0.108 | 0.0141 | 0 |
| GGAAACCGAGCUCUC | 0.176 | 0.188 | 0.00668 | 0 |
| GGAAACCGGAUUGGC | 0.224 | 0.105 | 0.0141 | 0 |
| GGAAACCGAUCUGCC | 0.176 | 0.135 | 0.0187 | 0.00760 |
| GGAAACCGAGAUUAC | 0.224 | 0.872 | 0.203 | 0.0287 |
| GGAAACCGGUAAGUC | 0.256 | 0.0741 | 0.0141 | 0 |
| GGAAACCGCAACAAC | 0.176 | 0.150 | 0.00668 | 0.0104 |